SMILES strings stand for the structures. Values joined by “and” are separate entries in the source; they are usually repeats but may differ in a detail not shown here. Equal entries are not always repeated.

The subject of this series is pLAI reporter virus. Format: cell-based, HIV. Conditions: EC50 (50% HS)/EC50 (CCM).
As for `COC[C@@H]1CO[C@@]2(CC[C@H](C)N3C[C@H]2n2cc(C(=O)NCc4c(F)cc(F)cc4F)c(=O)c(O)c2C3=O)O1` (single isomer, unassigned) [168 (peak 1)], the “RLUC 50% HS Shift” value was 5×.
The result for `COC[C@@H]1CO[C@]2(CC[C@H](C)N3C[C@H]2n2cc(C(=O)NCc4c(F)cc(F)cc4F)c(=O)c(O)c2C3=O)O1` (single isomer, unassigned) [168 (peak 2)] reads 26×; that for `C[C@H]1CC[C@@]2(OC[C@@H](Cc3ccccc3)O2)[C@H]2CN1C(=O)c1c(O)c(=O)c(C(=O)NCc3c(F)cc(F)cc3F)cn12` (single isomer, unassigned) [169 (peak 1)], 7×.
The result for `C[C@H]1CC[C@]2(OC[C@@H](Cc3ccccc3)O2)[C@H]2CN1C(=O)c1c(O)c(=O)c(C(=O)NCc3c(F)cc(F)cc3F)cn12` (single isomer, unassigned) [169 (peak 2)] reads 2×.
The result for `CO[C@H]1CS[C@]2(CC[C@H](C)N3C[C@H]2n2cc(C(=O)NCc4c(F)cc(F)cc4F)c(=O)c(O)c2C3=O)O1` (single isomer, unassigned) [170 (peak 1)] reads 16×.
Turning to `CO[C@@H]1CS[C@]2(CC[C@H](C)N3C[C@H]2n2cc(C(=O)NCc4c(F)cc(F)cc4F)c(=O)c(O)c2C3=O)O1` (single isomer, unassigned) [170 (peak 2)], the “RLUC 50% HS Shift” value turned out to be 15×.
The result for `CO[C@H]1CS[C@@]2(CC[C@H](C)N3C[C@H]2n2cc(C(=O)NCc4c(F)cc(F)cc4F)c(=O)c(O)c2C3=O)O1` (single isomer, unassigned) [170 (peak 3)] reads 132×.
Take `CO[C@@H]1CS[C@@]2(CC[C@H](C)N3C[C@H]2n2cc(C(=O)NCc4c(F)cc(F)cc4F)c(=O)c(O)c2C3=O)O1` (single isomer, unassigned) [170 (peak 4)]: the “RLUC 50% HS Shift” value is 52×.
The result for `CC1=NO[C@@]2(CC[C@H](C)N3C[C@H]2n2cc(C(=O)NCc4ccc(F)cc4F)c(=O)c(O)c2C3=O)[C@H]1F` (single isomer, unassigned) [Example 27 (peak 1)] reads 877×.
The result for `CC1=NO[C@@]2(CC[C@H](C)N3C[C@H]2n2cc(C(=O)NCc4ccc(F)cc4F)c(=O)c(O)c2C3=O)[C@@H]1F` (single isomer, unassigned) [Example 27 (peak 2)] reads 534×; that for `CC1=NN(c2ccccc2)C2(CC[C@H](C)N3C[C@H]2n2cc(C(=O)NCc4c(F)cc(F)cc4F)c(=O)c(O)c2C3=O)C1` (single isomer, unassigned) [Example 90, (3′S,7′R)-12′-hydroxy-3′,5-dimethyl-1′,11′-dioxo-2-phenyl-N-(2,4,6-trifluorobenzyl)-1′,2,4,4′,5′,11′-hexahydro-3′H,7′H-spiro[pyrazole-3,6′-[2,7]methanopyrido[1,2-a][1,4]diazonine]-10′-carboxamide], 17× and 9×.
As for `C[C@H]1CC[C@]2(CC(=O)N(Cc3ccc(F)cc3)O2)[C@H]2CN1C(=O)c1c(O)c(=O)c(C(=O)NCc3c(F)cc(F)cc3F)cn12` (single isomer, unassigned) [Example 115], the “RLUC 50% HS Shift” value turned out to be 17×.
Regarding `CC1=NO[C@@]2(CC[C@H](C)N3C[C@H]2n2cc(C(=O)NCc4ccc(F)cc4F)c(=O)c(O)c2C3=O)C1` [Example 1, (3'S,5S,7′R)—N-(2,4-difluorobenzyl)-12′-hydroxy-3,3′-dimethyl-1′,11′-dioxo-1′,4′,5′,11′-tetrahydro-3′H,4H,7′H-spiro[isoxazole-5,6′-[2,7]methanopyrido[1,2-a][1,4]diazonine]-10′-carboxamide], the “RLUC 50% HS Shift” value was 307× and 368×.
For `CC1=NO[C@]2(CC[C@H](C)N3C[C@H]2n2cc(C(=O)NCc4ccc(F)cc4F)c(=O)c(O)c2C3=O)C1` [Example 2, (3′S,5R,7′R)—N-(2,4-difluorobenzyl)-12′-hydroxy-3,3′-dimethyl-1′,11′-dioxo-1′,4′,5′,11′-tetrahydro-3′H,4H,7′H-spiro[isoxazole-5,6′-[2,7]methanopyrido[1,2-a][1,4]diazonine]-10′-carboxamide] the value was 4×; for `CC1=NO[C@@]2(CC[C@H](C)N3C[C@H]2n2cc(C(=O)NCc4c(F)cc(F)cc4F)c(=O)c(O)c2C3=O)C1` [Example 3, (3′S,5S,7′R)-12′-hydroxy-3,3′-dimethyl-1′,11′-dioxo-N-(2,4,6-trifluorobenzyl)-1′,4′,5′,11′-tetrahydro-3′H,4H,7′H-spiro[isoxazole-5,6′-[2,7]methanopyrido[1,2-a][1,4]diazonine]-10′-carboxamide], 356×; for `CC1=NO[C@]2(CC[C@H](C)N3C[C@H]2n2cc(C(=O)NCc4c(F)cc(F)cc4F)c(=O)c(O)c2C3=O)C1` [Example 4, (3′S,5R,7′R)-12′-hydroxy-3,3′-dimethyl-1′,11′-dioxo-N-(2,4,6-trifluorobenzyl)-1′,4′,5′,11′-tetrahydro-3′H,4H,7′H-spiro[isoxazole-5,6′-[2,7]methanopyrido[1,2-a][1,4]diazonine]-10′-carboxamide], 2×.
With `CC1=NO[C@]2(C1)C[C@H](F)[C@H](C)N1C[C@H]2n2cc(C(=O)NCc3ccc(F)cc3F)c(=O)c(O)c2C1=O` [Example 5, (3′S,4′S,5R,7′R)—N-(2,4-difluorobenzyl)-4′-fluoro-12′-hydroxy-3,3′-dimethyl-1′,11′-dioxo-1′,4′,5′,11′-tetrahydro-3′H,4H,7′H-spiro[isoxazole-5,6′-[2,7]methanopyrido[1,2-a][1,4]diazonine]-10′-carboxamide], the “RLUC 50% HS Shift” value came out at 69×.
The result for `CC1=NO[C@@]2(CC[C@H](C)N3C[C@H]2n2cc(C(=O)NCc4ccc(F)c(Cl)c4F)c(=O)c(O)c2C3=O)C1` [Example 6, (3′S,5S,7′R)—N-(3-chloro-2,4-difluorobenzyl)-12′-hydroxy-3,3′-dimethyl-1′,11′-dioxo-1′,4′,5′,11′-tetrahydro-3′H,4H,7′H-spiro[isoxazole-5,6′-[2,7]methanopyrido[1,2-a][1,4]diazonine]-10′-carboxamide] reads 2717×; that for `CC(C)C1=NO[C@@]2(CC[C@H](C)N3C[C@H]2n2cc(C(=O)NCc4ccc(F)cc4F)c(=O)c(O)c2C3=O)C1` [Example 7, (3′S,5S,7′R)—N-(2,4-difluorobenzyl)-12′-hydroxy-3-isopropyl-3′-methyl-1′,11′-dioxo-1′,4′,5′,11′-tetrahydro-3′H,4H,7′H-spiro[isoxazole-5,6′-[2,7]methanopyrido[1,2-a][1,4]diazonine]-10′-carboxamide], 3×; that for `CCC1=NO[C@@]2(CC[C@H](C)N3C[C@H]2n2cc(C(=O)NCc4ccc(F)cc4F)c(=O)c(O)c2C3=O)C1` [Example 8, (3′S,5S,7′R)—N-(2,4-difluorobenzyl)-3-ethyl-12′-hydroxy-3′-methyl-1′,11′-dioxo-1′,4′,5′,11′-tetrahydro-3′H,4H,7′H-spiro[isoxazole-5,6′-[2,7]methanopyrido[1,2-a][1,4]diazonine]-10′-carboxamide], 376×.
The result for `C[C@H]1CC[C@]2(CC(CC(F)(F)F)=NO2)[C@H]2CN1C(=O)c1c(O)c(=O)c(C(=O)NCc3c(F)cc(F)cc3F)cn12` [Example 9] reads 292×; that for `C[C@H]1CC[C@]2(CC(CCCCCl)=NO2)[C@H]2CN1C(=O)c1c(O)c(=O)c(C(=O)NCc3c(F)cc(F)cc3F)cn12` [Example 10, (3′S,5S,7′R)-3-(4-chlorobutyl)-12′-hydroxy-3′-methyl-1′,11′-dioxo-N-(2,4,6-trifluorobenzyl)-1′,4′,5′,11′-tetrahydro-3′H,4H,7′H-spiro[isoxazole-5,6′-[2,7]methanopyrido[1,2-a][1,4]diazonine]-10′-carboxamide], 6×; that for `C[C@H]1CC[C@]2(CC(c3ccccc3)=NO2)[C@H]2CN1C(=O)c1c(O)c(=O)c(C(=O)NCc3ccc(F)cc3F)cn12` [Example 11, (3′S,5S,7′R)—N-(2,4-difluorobenzyl)-12′-hydroxy-3′-methyl-1′,11′-dioxo-3-phenyl-1′,4′,5′,11′-tetrahydro-3′H,4H,7′H-spiro[isoxazole-5,6′-[2,7]methanopyrido[1,2-a][1,4]diazonine]-10′-carboxamide], 9×.
For `C[C@H]1CC[C@]2(CC(Cc3ccccc3)=NO2)[C@H]2CN1C(=O)c1c(O)c(=O)c(C(=O)NCc3ccc(F)cc3F)cn12` [Example 12, (3′S,5S,7′R)-3-benzyl-N-(2,4-difluorobenzyl)-12′-hydroxy-3′-methyl-1′,11′-dioxo-1′,4′,5′,11′-tetrahydro-3′H,4H,7′H-spiro[isoxazole-5,6′-[2,7]methanopyrido[1,2-a][1,4]diazonine]-10′-carboxamide] the value was 32×; for `C[C@H]1CC[C@]2(CC(c3ccccn3)=NO2)[C@H]2CN1C(=O)c1c(O)c(=O)c(C(=O)NCc3ccc(F)cc3F)cn12` [Example 13, (3′S,5S,7′R)—N-(2,4-difluorobenzyl)-12′-hydroxy-3′-methyl-1′,11′-dioxo-3-(pyridin-2-yl)-1′,4′,5′,11′-tetrahydro-3′H,4H,7′H-spiro[isoxazole-5,6′-[2,7]methanopyrido[1,2-a][1,4]diazonine]-10′-carboxamide], 1×; for `C[C@H]1CC[C@]2(CC(c3cccnc3)=NO2)[C@H]2CN1C(=O)c1c(O)c(=O)c(C(=O)NCc3ccc(F)cc3F)cn12` [Example 14, (3′S,5S,7′R)—N-(2,4-difluorobenzyl)-12′-hydroxy-3′-methyl-1′,11′-dioxo-3-(pyridin-3-yl)-1′,4′,5′,11′-tetrahydro-3′H,4H,7′H-spiro[isoxazole-5,6′-[2,7]methanopyrido[1,2-a][1,4]diazonine]-10′-carboxamide], 5×.
Turning to `C[C@H]1CC[C@]2(CC(C3CC3)=NO2)[C@H]2CN1C(=O)c1c(O)c(=O)c(C(=O)NCc3ccc(F)cc3F)cn12` [Example 15, (3′S,5S,7′R)-3-cyclopropyl-N-(2,4-difluorobenzyl)-12′-hydroxy-3′-methyl-1′,11′-dioxo-1′,4′,5′,11′-tetrahydro-3′H,4H,7′H-spiro[isoxazole-5,6′-[2,7]methanopyrido[1,2-a][1,4]diazonine]-10′-carboxamide], the “RLUC 50% HS Shift” value worked out at 5×.

The record behind these values is patent publication US20250115620A1, “BRIDGED TRICYCLIC CARBAMOYLPYRIDONE COMPOUNDS AND USES THEREOF” (Gilead Sciences, Inc., priority 2022, published 2025).
